Target: biotinylated human ACE2 protein (Cat# AC2-H82E6, ACROBiosystems) (human) (UniProt Q9BYF1)
Experiment: BLI
Conditions: domain or fragment

Row | Substance | Kd [µM] | koff [s⁻¹]
1 | SARS-CoV-2 spike receptor-binding domain (RBD, 319-529 aa), His-tagged, synthesized by the conventional wheat germ cell-free system (WG) (from UniProt P0DTC2 319-529) | 0.18 | 0.00069
2 | SARS-CoV-2 spike receptor-binding domain (RBD, 319-529 aa), His-tagged, synthesized by the wheat germ cell-free system with ERO1α and PDI (EP-WG) (from UniProt P0DTC2 319-529) | 0.026 | 0.0063

Reference: publication PMC9321213
